A mixed list of measured activities; the numbers were collected in NIAID ChemDB.

Common to all: tests in culture; species: Mycobacterium tuberculosis

a–b is a range or a potency band. Inhibition is in % at the dose shown (toxicity tests: loss of growth or viability). MIC bound: limit read from a one-dose screen. Conditions beyond the fields shown may differ between rows. A number after MIC or MFC names an inhibition level or a share of isolates. An empty or dashed field is not shown.

structure	conditions	endpoint	mutations	read by	strain	cells	dose	value
CCCCCCCCCCCCNC(CC(=O)OCC)c1ccc([N+](=O)[O-])cc1	-	MIC	-	-	Sensitive strains	-	-	25 µg/mL
Cc1nc2c(C)cccn2c1C(=O)NNC(=S)Nc1ccc(Cl)cc1	-	MIC	-	-	H37Rv	-	-	>12.5 µM
NC(=S)c1ccc(NCc2ccccc2)cc1	-	MIC	-	-	-	-	-	175 µM
Cc1cc2c(C(C)C)c(O)c(O)c(C=O)c2c(O)c1-c1c(C)cc2c(C(C)C)c(O)c(O)c(C=O)c2c1O	-	inhibition	-	BACTEC	H37Rv	-	12.8 µg/mL	11%
CO[C@H]1/C=C/O[C@@]2(C)Oc3c(C)c(O)c4c(O)c(cc(OCC(=O)N(C)C(C)C)c4c3C2=O)NC(=O)/C(C)=C\C=C\[C@H](C)[C@H](O)[C@@H](C)[C@@H](O)[C@@H](C)[C@H](OC(C)=O)[C@@H]1C	-	MIC	-	-	H37Rv	-	-	0.18 µg/mL
O=C(NNC(=O)c1ccccc1Cl)c1ccccc1Cl	-	MIC	-	-	-	-	-	>200 µg/mL
CO/C(C)=C1/NC(=O)[C@H]([C@@H](C)O)NC(=O)c2csc(n2)-c2cc(O)c(-c3nc(C(=O)NNC4CCN(C)CC4)cs3)nc2-c2csc(n2)[C@@H]2COC(=O)c3c4c5c(cccc5n3O)COC(=O)[C@@H](O[C@H]3C[C@](C)(O)[C@H](N(C)C)[C@H](C)O3)[C@@H](OC4)[C@H](NC(=O)c3csc1n3)c1nc(cs1)C(=O)N2	-	MIC	Multidrug-resistant	broth dilution	Clinical isolate 565	-	-	10–100 µM
Cc1coc2c1C(OC(=O)C(C)C)C1(C)C(C)CCC(O)C1C2=O	-	MIC	-	BACTEC	H37Rv	-	-	≥12.5 µg/mL
CC(C)c1ccc(NC(=O)CCC(=O)Nc2ccc(C(C)C)cc2)cc1	-	MIC	-	-	H37Rv	-	-	>1000 µM
NC(=O)c1cnccn1	pH 6.0	MIC90	-	resazurin	H37Rv	-	-	>100 µM
CC(=O)N1C(=O)C2(NCCCN2)c2ccccc21	-	inhibition	-	BACTEC	H37Rv	-	12.8 µg/mL	0%
CC(=O)Nc1ccc(C(N)=S)cc1	-	MIC	-	-	-	-	-	500 µM
CS(=O)(=O)O.Cc1ccc(NCCN2CCOCC2)c2c(=O)c3ccc(Cl)cc3sc12	-	inhibition	-	BACTEC	H37Rv	-	12.5 µg/mL	-33%
NNC(=O)CCCCC(=O)NN	-	MIC	-	-	-	-	-	200 µg/mL
NNC(=O)c1ccccc1SSc1ccccc1C(=O)NN	-	MIC	-	-	TAC-R	-	-	>12.5 µg/mL
CO[C@H]1/C=C/O[C@@]2(C)Oc3c(C)c(O)c4c(O)c(c(/C=N/N5CCN(C/C=C/c6ccccc6)CC5)c(O)c4c3C2=O)NC(=O)/C(C)=C\C=C\[C@H](C)[C@H](O)[C@@H](C)[C@@H](O)[C@@H](C)[C@H](OC(C)=O)[C@@H]1C	-	MIC	-	-	Watanabe	-	-	25 µg/mL
CCCCCCCCC=CCCCCCCCCNCc1ccc(OC)c(OC)c1	-	MIC	-	-	Sensitive strains	-	-	3.12 µg/mL
O=C(CCC(=O)Nc1ccc(Cl)c(Cl)c1)Nc1ccc(Cl)c(Cl)c1	-	MIC	-	-	H37Rv	-	-	250 µM
C/C=C/c1ccc2oc(-c3ccc(O)c(OC)c3)c(C)c2c1	-	MIC	-	resazurin / absorbance	Clinical isolate 11	-	-	7.8 µg/mL
ClCCN1CCN(CCCN2c3ccccc3Sc3ccc(Cl)cc32)CC1	-	MIC	-	-	H37Rv	-	-	3.96 µg/mL
CCOc1ccc(C(=O)N/N=C/c2ccc3c(c2)OCO3)cc1	-	MIC	-	-	-	-	-	200 µg/mL
CCC[CH2][Sn]([Cl])([Br])[CH2]CCC.c1cnc2c(c1)ccc1cccnc12	-	inhibition	-	BACTEC	H37Rv	-	12.5 µg/mL	99%
O=C(/C=C/c1ccccc1)NNC(=O)c1ccncc1	-	MIC	-	resazurin	H37Rv	-	-	31.3 µM
Cc1nc2c(C)cccn2c1C(=O)NNC(=S)Nc1ccc(F)cc1	-	MIC	-	-	H37Rv	-	-	>12.5 µM
O=C(/C=C/c1cc(Cl)cc(Cl)c1)NNC(=O)c1ccncc1	-	MIC	-	resazurin	H37Rv	-	-	67.4 µM
NNC(=O)c1ccncc1	-	MIC	isoniazid and streptomycin resistant	resazurin / absorbance	Clinical isolate 91	-	-	2 µg/mL
CO[C@H]1/C=C/O[C@@]2(C)Oc3c(C)c(O)c4c(O)c(c(/C=N/N5CCN(C)CC5)c(O)c4c3C2=O)NC(=O)/C(C)=C\C=C\[C@H](C)[C@H](O)[C@@H](C)[C@@H](O)[C@@H](C)[C@H](OC(C)=O)[C@@H]1C	pH 6.6	MIC90	Pyrazinamide-resistant	resazurin	-	-	-	>0.05 µM
Oc1ccc2c3c1OC1/C(=N/N=C4\CCC5(O)C6Cc7ccc(O)c8c7C5(CCN6CC5CC5)C4O8)CCC4(O)C(C2)N(CC2CC2)CCC314	-	MIC bound	-	BACTEC	H37Rv	-	-	>12.5 µg/mL
NNC(=O)CNc1cccc([N+](=O)[O-])c1	-	MIC	-	-	-	-	-	40 µg/mL
O=C(CCC(=O)Nc1ccc(F)cc1)Nc1ccc(F)cc1	-	MIC	-	-	H37Rv	-	-	250 µM
CCOC(=O)C(Cc1ccccc1)NP(=O)(CCC(=O)N1C[C@H](OCC(O)P(=O)(NC(Cc2ccccc2)C(=O)OCC)NC(Cc2ccccc2)C(=O)OCC)[C@H](n2cnc3c(=O)[nH]c(N)nc32)C1)NC(Cc1ccccc1)C(=O)OCC	-	MIC90	-	resazurin / fluorescence	H37Rv	-	-	14 µM
CCCCNC(CC(=O)OCC)c1cccc([N+](=O)[O-])c1	-	MIC	-	-	Sensitive strains	-	-	25 µg/mL
O=C(CCCC(=O)NNC(=O)Nc1ccc(Cl)cc1)NNC(=O)Nc1ccc(Cl)cc1	-	MIC bound	-	BACTEC	H37Rv	-	-	>12.5 µg/mL
CO[C@H]1/C=C/O[C@@]2(C)Oc3c(C)c(O)c4c(O)c(cc(O)c4c3C2=O)NC(=O)/C(C)=C\C=C\[C@H](C)[C@H](O)[C@@H](C)[C@@H](O)[C@@H](C)[C@H](OC(C)=O)[C@@H]1C	-	MIC	-	-	Aoyama B	-	-	12.5 µg/mL
O=C(N/N=C/c1ccccc1)c1ccccc1Cl	-	MIC	-	-	-	-	-	1 µg/mL
O=C(OCCCl)c1cnccn1	-	MIC90	-	resazurin	H37Rv	-	-	227.4 µM
NNC(=O)c1ccc[n+](Cc2ccccc2)c1.[Cl-]	-	MIC bound	-	BACTEC	H37Rv	-	-	>12.5 µg/mL
O=C(/C=C/c1ccc(O)cc1)NNC(=O)c1ccncc1	-	MIC	-	resazurin	H37Rv	-	-	26.4 µM
COc1c(N2CC[C@@H](C(C)(C)N)C2)c(F)cc2c(=O)c3c(=O)[nH]sc3n(C3CC3)c12	-	MIC	-	-	Multidrug-resistant isolate 9	-	-	0.06 µg/mL
O=C(/C=C/c1ccc(F)cc1)NNC(=O)c1ccncc1	-	MIC	-	resazurin	H37Rv	-	-	89.5 µM
CC1=NNC(=O)C1	-	MIC	-	-	-	-	-	100 µg/mL
Cc1ccc(NC(=O)CCC(=O)Nc2ccc(C)c(C)c2)cc1C	-	MIC	-	-	H37Rv	-	-	500 µM
CC1COc2c(N3CCN(C)CC3)c(F)cc3c(=O)c(C(=O)O)cn1c23	-	MIC50	-	-	187 isolates	-	-	0.5 µg/mL
CO[C@H]1/C=C/O[C@@]2(C)Oc3c(C)c(O)c4c(O)c(c(/C=N/N5CCN(C/C=C/c6ccccc6)CC5)c(O)c4c3C2=O)NC(=O)/C(C)=C\C=C\[C@H](C)[C@H](O)[C@@H](C)[C@@H](O)[C@@H](C)[C@H](OC(C)=O)[C@@H]1C	-	MIC	-	-	2230 (MDR)	-	-	4 µg/mL
CC1COc2c(N3CCN(C)CC3)c(F)cc3c(=O)c(C(=O)O)cn1c23	-	MIC50	-	-	25 strains	-	-	0.78 µg/mL
CO[C@H]1/C=C/O[C@@]2(C)Oc3c(C)c(O)c4c(O)c(cc(OCC(=O)N5C(C)COCC5C)c4c3C2=O)NC(=O)/C(C)=C\C=C\[C@H](C)[C@H](O)[C@@H](C)[C@@H](O)[C@@H](C)[C@H](OC(C)=O)[C@@H]1C	-	MIC	-	-	H37Rv	-	-	0.09 µg/mL
NNC(=O)Cc1ccc(Cl)cc1	-	MIC	-	-	-	-	-	200 µg/mL
O=C(N=Nc1c(Cl)c(O)c2ccccc2c1O)C(F)(F)F	-	MIC	-	BACTEC	H37Rv	VERO	-	0.8 µg/mL
C=C(NC(=O)c1csc(-c2nc3c(cc2O)-c2nc(cs2)C(=O)N[C@@H]([C@@H](C)O)C(=O)N/C(=C(\C)OC)c2nc(cs2)C(=O)N[C@@H]2c4nc(cs4)C(=O)N[C@@H](COC(=O)c4c5c6c(cccc6n4O)COC(=O)[C@@H](O[C@H]4C[C@](C)(O)[C@H](N(C)C)[C@H](C)O4)[C@H]2OC5)c2nc-3cs2)n1)C(N)=O	-	MIC	Isoniazid- and moxifloxacin-resistant	broth dilution	Clinical isolate 18343	-	-	≤2.5 µM
CC(C)Nc1ccc(C(N)=S)cc1	-	MIC	-	-	-	-	-	500 µM
CC1=N/C(=C/c2ccccc2O)C(=O)N1n1c(-c2ccccc2)nc2ccccc2c1=O	-	MIC bound	-	BACTEC	H37Rv	-	-	>12.5 µg/mL
CCCN(C(=O)COc1cc2c(O)c3c(O)c(C)c4c(c13)C(=O)[C@@](C)(O/C=C/[C@H](OC)[C@@H](C)[C@@H](OC(C)=O)[C@H](C)[C@H](O)[C@H](C)[C@@H](O)[C@@H](C)/C=C/C=C(/C)C(=O)N2)O4)N(C)C	-	MIC	-	-	H37Rv	-	-	0.15 µg/mL
C/C(=N\NC(=O)CCSCCC(=O)N/N=C(\C)c1ccccc1O)c1ccccc1O	-	MIC bound	-	BACTEC	H37Rv	-	-	>12.5 µg/mL
COC(=O)c1cnccn1	pH 6.0	MIC90	Pyrazinamide-resistant	resazurin	-	-	-	>724 µM
CCCCCCCCCCC/C=N/NC(=O)C(=O)N/N=C/CCCCCCCCCCC	-	inhibition	-	BACTEC	H37Rv	-	12.5 µg/mL	14%
O=C(Nc1ccc(Br)cc1)C(=O)Nc1ccc(Br)cc1	-	MIC	-	-	H37Rv	-	-	4.1 µM
CO[C@H]1/C=C/O[C@@]2(C)Oc3c(C)c(O)c4c(O)c(cc(OCC(=O)Nc5ccccc5)c4c3C2=O)NC(=O)/C(C)=C\C=C\[C@H](C)[C@H](O)[C@@H](C)[C@@H](O)[C@@H](C)[C@H](OC(C)=O)[C@@H]1C	-	MIC	-	-	H37Rv	-	-	0.01 µg/mL
C/C(CCC(=O)O)=N/NC(=O)c1ccccc1Cl	-	MIC	-	-	-	-	-	40 µg/mL
CCCCCCCCNC(CC(=O)OCC)c1ccccc1	-	MIC	-	-	Sensitive strains	-	-	25 µg/mL
c1ccc2c(c1)CN1CCN=C1N2	-	inhibition	-	resazurin	H37Rv	-	6.25 µg/mL	-2%
CCN(CC)CCN(CC)CCN(C)C(=O)COc1cc2c(O)c3c(O)c(C)c4c(c13)C(=O)[C@@](C)(O/C=C/[C@H](OC)[C@@H](C)[C@@H](OC(C)=O)[C@H](C)[C@H](O)[C@H](C)[C@@H](O)[C@@H](C)/C=C/C=C(/C)C(=O)N2)O4	-	MIC	-	-	H37Rv	-	-	0.18 µg/mL
Nc1nc(=O)[nH]s1	-	MIC	-	BACTEC	H37Rv	VERO	-	12.5 µg/mL
CCCCCCCCC=CCCCCCCCCNCc1ccc(F)cc1	-	MIC	-	-	H37Ra	-	-	>25 µg/mL
CCCN(C)C(=O)COc1cc2c(O)c3c(O)c(C)c4c(c13)C(=O)[C@@](C)(O/C=C/[C@H](OC)[C@@H](C)[C@@H](OC(C)=O)[C@H](C)[C@H](O)[C@H](C)[C@@H](O)[C@@H](C)/C=C/C=C(/C)C(=O)N2)O4	-	MIC	-	-	H37Rv	-	-	0.09 µg/mL
Nc1nc(N)c2nc3c(nc2n1)CN(c1ccc(C(=O)O)cc1)C3=O	-	MIC bound	-	BACTEC	H37Rv	-	-	>12.5 µg/mL
CCCCCCCCCCCCNC(CCO)c1cccc([N+](=O)[O-])c1	-	MIC	-	-	H37Ra	-	-	<25 µg/mL
Nc1ccc(N=Nc2ccc3cc4ccc(N=Nc5ccc(N)nc5N)cc4nc3c2)c(N)n1	-	MIC	-	BACTEC	H37Rv	-	-	≥12.5 µg/mL
Oc1ccccc1CNCCCCCCCCCCCCNCc1ccccc1O	-	MIC	-	-	Sensitive strains	-	-	3.12 µg/mL
NC(Cc1ccc(O)cc1)C(=O)N/N=C/c1cccc2ccccc12	-	inhibition	-	BACTEC	H37Rv	-	12.5 µg/mL	4%
CCCCCNc1ccc(C(N)=S)cc1	-	MIC	-	-	-	-	-	150 µM
O=C1C2=C(c3ccccc31)C(c1ccc(Cl)cc1)NC(=S)N2	-	MIC bound	-	BACTEC	H37Rv	-	-	>12.5 µg/mL
CNc1ccc(C(N)=S)cc1	-	MIC	-	-	-	-	-	425 µM
CC1=NN(C(=O)CC(=O)NC(=O)CC(=O)Nc2ccccc2F)C(=O)C1N=Nc1ccc([N+](=O)[O-])cc1	-	MIC	-	BACTEC	H37Rv	-	-	≥12.8 µg/mL
O=C(Cc1ccccc1)NNC(=O)Cc1ccccc1	-	MIC	-	-	-	-	-	100 µg/mL